Measured values from several laboratories, pooled; numbers as filed in NIAID ChemDB.

Common to all: growth or infection tests; organism: Respiratory syncytial virus; read-out: EC50

ECn: concentration that inhibits the pathogen or its effect by n%. Two numbers with a dash give a range or band. An empty or dashed field is not shown. Rows are shuffled and stem from different studies.

O=c1cc(-c2ccc(O)c(-c3c(O)cc4oc(-c5ccc(O)cc5)cc(=O)c4c3O)c2)oc2cc(O)cc(O)c12 ; read by: neutral red ; cell line: MA-104 ; strain: UTAH 89 ; result: 50 µg/mL
CN(C)CCn1c(Cn2c(=O)n(CCN(C)C)c3ccccc32)nc2ccccc21 ; read by: cytopathic effect ; cell line: HEP-2 ; strain: Long (subtype A) ; result: 0.4 µM
NC(=O)c1ncn([C@@H]2O[C@H](CO)[C@@H](O)[C@H]2O)n1 ; read by: plaque count ; cell line: HEP-2 ; strain: 109 ; result: 4 µg/mL
C#Cc1c(C(N)=O)ncn1[C@@H]1O[C@H](CO)[C@@H](O)[C@H]1O ; read by: plaque count ; cell line: HeLa ; strain: TYPE 3/LONG ; result: 0.13 µg/mL
NC(=O)c1[nH]nc([C@@H]2O[C@H](CO)[C@@H](O)[C@H]2O)c1O ; read by: cytopathic effect ; cell line: HeLa ; strain: LONG ; result: 0.09 µg/mL
COc1cc(O)c2c(=O)cc(-c3ccc(O)c(-c4c(O)cc(O)c5c(=O)cc(-c6ccc(O)cc6)oc45)c3)oc2c1 ; read by: plaque count ; cell line: HEP-2 ; result: >100 µg/mL
CCCCCCCCCCCCCCCCCCCCCCOCC(C)(COCCCCCCCCCCCCCCCCCCCCCC)CO[C@]1(C(=O)O)C[C@H](OS(=O)(=O)O)[C@@H](NC(C)=O)[C@H]([C@H](OS(=O)(=O)O)[C@@H](COS(=O)(=O)O)OS(=O)(=O)O)O1 ; read by: plaque count ; cell line: HEP-2 ; strain: SM61-48 ; result: 0.13 µM
C#Cc1c(C(N)=O)ncn1[C@@H]1O[C@H](CO)[C@@H](O)[C@H]1O ; read by: cytopathic effect ; cell line: HeLa ; result: 0.7 µg/mL
CCOP(=O)(O)c1ccc(Cn2c(=O)n(Cc3nc4ccccc4n3CCC(C)C)c3ccccc32)cc1 ; read by: cytopathic effect ; cell line: HEP-2 ; strain: Long (subtype A) ; result: 0.05 µM
C/C=C1\[C@H](OC2O[C@H](CO)[C@@H](O)[C@H](O)[C@H]2O)OC=C(C(=O)O)[C@H]1CC(=O)OCC(OCC)c1ccc(O)c(O)c1 ; read by: cytopathic effect ; cell line: HEP-2 ; strain: LONG ; result: >150 µM
Nc1cc2[nH]cnc2c(=O)[nH]1 ; read by: cytopathic effect ; cell line: HeLa ; strain: LONG ; result: 2.23 µg/mL
Nc1cc(OCCOCP(=O)(O)O)nc(N)n1 ; read by: cytopathic effect ; result: >190 µM
NC(=O)c1ncn([C@@H]2O[C@H](CO)[C@@H](O)[C@H]2O)n1 ; read by: cytopathic effect ; cell line: HeLa ; result: 8 µg/mL
CCOC(c1ccccn1)n1c(NC2CCN(CCN)CC2)nc2ccccc21 ; read by: MTT ; cell line: HELA/M ; result: 0.063 µM
CC(=O)Oc1ccc([C@@H]2CC(=O)c3c(cc(OC(C)=O)c(-c4c(OC(C)=O)cc5c(c4OC(C)=O)C(=O)C[C@@H](c4ccc(OC(C)=O)cc4)O5)c3OC(C)=O)O2)cc1 ; read by: cytopathic effect ; cell line: MA-104 ; strain: UTAH 89 ; result: >3 µg/mL
Nc1ncnc2c1ncn2CCOCP(=O)(O)O ; read by: cytopathic effect ; result: >185 µM
C/C=C1\[C@H](OC2O[C@H](CO)[C@@H](O)[C@H](O)[C@H]2O)OC=C(C(=O)OC)[C@H]1CC(=O)OC ; read by: cytopathic effect ; cell line: HEP-2 ; strain: LONG ; result: 83.3 µM
Nc1ccc(S(=O)(=O)O)c2cc(S(=O)(=O)O)cc(O)c12 ; read by: cytopathic effect ; cell line: HeLa ; result: >200 µM
N#Cc1nc[nH]c1C(N)=O ; read by: cytopathic effect ; cell line: HeLa ; strain: LONG ; result: >500 µg/mL
CC(C)CCn1c(Cn2c(=O)n(Cc3ccc(C(=O)O)cc3)c3ccccc32)nc2ccccc21 ; read by: cytopathic effect ; cell line: HEP-2 ; strain: Long (subtype A) ; result: 0.01 µM
C/C=C1/[C@H](O[C@@H]2O[C@H](CO)[C@@H](O)[C@H](O)[C@H]2O)OC=C(C(=O)OC)[C@H]1CC(=O)OCCc1ccc(O)c(O)c1 ; read by: cytopathic effect ; cell line: HEP-2 ; strain: LONG ; result: 23.4 µM
Nc1ncnc2c1ncn2C[C@@H](CO)OCP(=O)(O)O ; read by: cytopathic effect ; result: >50 µM
CCOCCOC(c1cccc2cccnc12)n1c(NC2CCN(CC(N)C(C)C)CC2)nc2ccccc21 ; result: 0.006 µM
Cc1nnnn1/C=C/c1ccc(O)c(C(c2ccc(O)cc2)c2cc(/C=N/n3nnnc3C)ccc2O)c1 ; read by: cytopathic effect ; cell line: HEP-2 ; result: 0.0014 µM
CC(C)CCn1c(Cn2c(=O)n(Cc3ccc(C(=O)N[C@@H](CC(=O)O)C(=O)O)cc3)c3ccccc32)nc2ccccc21 ; result: <50 µM
CC(C)CCCC(C)C1CCC2C3CC=C4CC(OC(=O)Nc5ccc(S(=O)(=O)O)c6ccccc56)CCC4(C)C3CCC12C ; read by: cytopathic effect ; cell line: HeLa ; result: 6.5 µM
COc1c(C)c2c(c(O)c1CC(=O)O)C(=O)OC2 ; read by: plaque count ; cell line: HeLa ; strain: TYPE A/LONG ; result: 0.42 µg/mL
Cc1cccc(Cn2c(NC3CCN(CCN)CC3)nc3ccccc32)n1 ; read by: MTT ; cell line: HELA/M ; result: 0.158 µM
Nc1ccn([C@@H]2C[C@H](CO)[C@@H](O)[C@H]2O)c(=O)n1 ; read by: cytopathic effect ; cell line: HeLa ; strain: S-2 ; result: >100 µg/mL
CC(C)CCn1c(Cn2c(=O)n(Cc3ccc(C(=O)N[C@@H](CC(=O)O)C(=O)O)cc3)c3ccccc32)nc2ccccc21 ; read by: cytopathic effect ; cell line: HEP-2 ; strain: Long (subtype A) ; result: 0.01 µM
CC(C)CCCC(C)C1CCC2C3CC=C4CC(OC(=O)Nc5ccc(S(=O)(=O)O)c6cccc(S(=O)(=O)O)c56)CCC4(C)C3CCC12C ; read by: cytopathic effect ; cell line: HeLa ; result: 7 µM
COc1ccc(-c2cc(=O)c3c(O)cc(O)c(-c4cc(-c5cc(=O)c6c(O)cc(OC)cc6o5)ccc4O)c3o2)cc1 ; read by: plaque count ; cell line: HEP-2 ; result: 50 µg/mL
NC(=O)c1ncn([C@@H]2O[C@H](CO)[C@@H](O)[C@H]2O)n1 ; read by: cytopathic effect ; cell line: HEP-2 ; result: 10.7 µg/mL
CC(C)CCCC(C)C1CCC2C3CC=C4CC(OC(=O)Nc5cc(S(=O)(=O)O)cc6cc(S(=O)(=O)O)cc(O)c56)CC[C@]4(C)C3CC[C@]12C ; read by: cytopathic effect ; cell line: HeLa ; result: >200 µM
O=c1n(Cc2nc3ccccc3n2CCCCO)c2cnccc2n1C1CC1 ; strain: Clinical isolates ; result: 0.009–0.05 µM
Cc1cccc(Cn2c(NC3CCN(CCN)CC3)nc3c(Cl)cccc32)n1 ; result: 0.126 µM
O=c1[nH]c(=O)n([C@@H]2O[C@H](CO)C[C@H]2O)cc1F ; read by: cytopathic effect ; cell line: HeLa ; strain: LONG ; result: >500 µg/mL

4 of the rows above, restated:

SMILES	read by	cell line	strain	result
Cc1nnnn1/C=C/c1ccc(O)c(C(c2ccc(O)cc2)c2cc(/C=N/n3nnnc3C)ccc2O)c1	cytopathic effect	HEP-2	-	0.0014 µM
Nc1ncnc2c1ncn2C[C@@H](CO)OCP(=O)(O)O	cytopathic effect	-	-	>50 µM
N#Cc1nc[nH]c1C(N)=O	cytopathic effect	HeLa	LONG	>500 µg/mL
Nc1cc(OCCOCP(=O)(O)O)nc(N)n1	cytopathic effect	-	-	>190 µM